## Results of single-concentration screens

Data taken from ChEMBL document CHEMBL3988442, “University of Dundee, Small-Polar-MMV Screening Library” (2021).

Mtb glucose medium: 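Phenotypic screen: M. tuberculosis growth, glucose 7H9 medium, 3 days; the read-out is not stated. Tested at 50 µM. Higher reads as more growth inhibition (inferred: compounds with an IC50 in retests scored well above the rest). About 69,000 compounds were tested under these conditions; 1.1% (about 760) showed 50% or more at least once.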
Mtb cholesterol medium: 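Whole-cell growth test on Mycobacterium tuberculosis, read after 4 days in a medium based on cholesterol and the lipid DPPC; the read-out is not stated. Tested at 50 µM. The record gives no direction; compounds that gave an IC50 in retests scored well above the rest, so higher reads as more growth inhibition. Of about 69,000 compounds tested this way, about 370 (0.54%) reached 50% or more in at least one test.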

Values are the deposited “Percent Effect”, in %.
The controls that fix the scale are not given in the record; negative values are as filed.
Many other results are left out here, so strong results are more common than in the screen.
Two or more numbers in one place are separate tests of the same structure; such repeats can differ widely.
A dash means the value is not listed here; it may have been measured.

SMILES | Mtb glucose medium | Mtb cholesterol medium
C1CC(c2noc(C3CC3)n2)CN(Cc2noc(C3CC3)n2)C1 (centres undefined) | 20.96 | 9.916
COc1cc(Oc2cnc3ccccc3n2)ccc1CN1CCCC1 | 72.93 | 53.88
CCc1nc(CNc2ccc(F)cc2I)no1 | 61.19 | -
O=C(NCCc1ccco1)Nc1cc(C(F)(F)F)c[nH]c1=O | 12.16 | 16.64
CCS(=O)(=O)c1nccn1-c1cccc(F)c1 | 30.47 | 5.224
CCCn1nnc(NCc2ccccc2OCc2ccc(Cl)cc2)n1 | 51.82 | 46.32
COCCCSc1ccc(NCc2scnc2C)cc1 | 59.98 & 40.83 | -
CC(C)c1cc(=O)[nH]c(-n2nc(C3CC3)cc2N)n1 | 93.45 | 88.29
CCOc1cc(Cl)ccc1CNC(=O)N(C)CC(C)(C)O | -2.512 | -
O=C(COCC(F)(F)F)NC1CCCc2cc(OC(F)F)ccc21 (centres undefined) | 51.08 | -
O=C(Nc1ccccc1OC1CCOC1)c1cc[nH]n1 (centres undefined) | -30.56 | -
O=C(CN(Cc1ccco1)C1CC1)Nc1ccc(Br)cn1 | 56.43 | -
CSCCC(NC(N)=O)C(=O)Nc1ccc(-n2cccn2)nc1 (centres undefined) | -5.275 & 1.35 | 11.98
CN(C)c1ncnc2c1CCN(C(=O)CN1CCCCC1)C2 | - | 75.09
CSC1=Nc2c(cnn2-c2ccc(C)cc2)C2=NCCCN12 | - | 56.76
O=S(=O)(C/C=C/c1ccccc1)Cc1nc(C2CC2)no1 | 14.21 & 18.34 | 29.73 & 16.66
CC(=O)N1CC(c2ncn(C(C)C)n2)c2cc(C(=O)NC(C)C)ccc21 (centres undefined) | - | -5.625 & 26.4
N#CCCN1CCC(=Cc2ccccc2)CC1 | 12.71 | 6.355
COC(=O)CCC(=O)NC1CCCc2cc(OC(F)F)ccc21 (centres undefined) | 34.66 | -
Cc1csc(N2CCCN(C(=O)CCN3CCCC3=O)CC2)n1 | -5.403 | -
Cc1ccccc1CN1CCC(c2nn(CCN)c3nccnc23)C1 (centres undefined) | - | 2.106
Cc1cc(NCCO)nc(-c2ccccc2O)n1 | 3.411 & 4.539 | -
O=C(NCC1CC1)c1cnc(-c2ccccc2)nc1 | 16.81 & 18.23 | -
CNC(=O)CS(=O)(=O)NC1CCC(C)CC1 (centres undefined) | 32.81 | -
Cc1cccc(OCCNC(=O)C(C)S(=O)(=O)C2CCCC2)c1 (centres undefined) | -37.57 & -1.505 | -
Cc1nonc1NC(=O)CCn1cc(Br)ccc1=O | 128.9 & 5.98 | -
Cc1noc(C)c1CNCc1nn(-c2ccccc2)c2c1CCC2 | 3.476 | -
Cc1nc(NCc2cccnc2)c2c(n1)c(C)nn2C | -24.14 | -2.31
O=C(O)[C@@H]1CN(Cc2c[nH]c(CC3CCCC3)n2)C[C@H]1c1ccccn1 | - | -9.003
CCN(C)C[C@@H]1CN(C(=O)c2cc(C(F)(F)F)n[nH]2)C[C@@H]1CO | 7.907 | 1.862
O=C(CCc1ccco1)Nc1cc(C(F)(F)F)c[nH]c1=O | 14.79 | -16.14
CC(C)c1nc(CC(=O)N(C)Cc2ccc3c(c2)OCO3)cs1 | 2.927 | 1.718
CCCc1ccc2oc(C(=O)N3CCN(CCC(N)=O)CC3)c(C)c2c1 | 36.62 | 5.772
COc1ccc2cccc(CC(=O)NCc3nccc(N)n3)c2c1 | - | -5.319
Cc1[nH]ncc1C(=O)N1CCOC(c2cccs2)C1 (centres undefined) | -20.38 | -2.124
CN(Cc1ccccc1)CC1(O)CCCN(CC(C)(C)C)C1=O (centres undefined) | -1.77 & 23.07 | -
N#Cc1cc(Cl)ccc1N1CCN(C(=O)C2CCC2)CC1 | 102 & 12.93 | -
CCCn1ncc2c(C(=O)Nc3n[nH]c(SC)n3)cc(C3CC3)nc21 | 15.33 | -
CC(CNC(=O)c1cnccn1)Oc1cccc(Br)c1 (centres undefined) | 67 | 47.18 & 47.04
Cl.c1cc(CNCc2ccc(-n3cncn3)nc2)cc(OC2CCCC2)c1 | 49.48 | 57.55
Cn1cc(CN2CCCC(CCc3ccc(F)cc3F)C2)cn1 (centres undefined) | 2.071 | 9.703
COCc1cccc(NC(C(N)=O)c2ccc(Br)cc2)c1 (centres undefined) | -10.24 & 9.366 | -2.632
O=c1[nH]nc(CNCc2ccc(OC34CCCN(CC3)C4)cc2)[nH]1 (centres undefined) | 4.117 | 15.2
O=C(NCc1ccncc1)c1ccc(Cl)cc1F | 16.94 | -
Cc1nnc2n1CCN(C(=O)c1cc(Br)c[nH]1)C2 | -0.5452 | -
Cl.Clc1cccnc1OC1CCNCC1 | -8.566 | -
Cc1noc(C)c1CN1CC[C@@H](OCC2CC2)[C@@H](Cc2ccccc2)C1.O=C(O)C(F)(F)F | 22.67 | -
CCn1cc(CN(C)S(=O)(=O)c2ccc(C(C)C)cc2)cn1 | 62.73 | -
CCOc1cccc2c1OCC(C(=O)NS(=O)(=O)c1ccc(Cl)cc1)=C2 | -18.91 | -
CCOc1ccc(Cl)cc1C1CCCN1.Cl (centres undefined) | 27.41 & 31.44 | 18.49
O=C(NCCCn1cccn1)c1nnc2ccccc2n1 | 37.54 | -
CN(C)c1ccc(C(=O)N2CCCC2c2cnn(C)c2)cn1 (centres undefined) | -39.45 | -
O=C(Cc1ccc(-n2cccn2)cc1)N1CCCC(n2cccn2)C1 (centres undefined) | - | 73.22
CC(C)c1nc(CN2CCCCC2)cs1 | -4.206 | -

For reference, 5 entries once more:

SMILES	Mtb glucose medium	Mtb cholesterol medium
Cc1[nH]ncc1C(=O)N1CCOC(c2cccs2)C1 (centres undefined)	-20.38	-2.124
COc1ccc2cccc(CC(=O)NCc3nccc(N)n3)c2c1	-	-5.319
O=C(CCc1ccco1)Nc1cc(C(F)(F)F)c[nH]c1=O	14.79	-16.14
Cl.Clc1cccnc1OC1CCNCC1	-8.566	-
Cc1cccc(OCCNC(=O)C(C)S(=O)(=O)C2CCCC2)c1 (centres undefined)	-37.57 & -1.505	-